## Share of PSTVd loop 15 variants by leaf site

Reference: Wu et al. 2024, doi:10.1371/journal.ppat.1012142.

The pool varies loop 15 of the PSTVd intermediate strain in the pattern GGAAACCGNNNNNNC; wild type is GGAAACCGCUACUAC (upper and lower strand joined, each 5' to 3', the first 7 letters being the upper strand, closing pairs included).

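Three N. benthamiana plants were inoculated with the whole mutant pool. Progeny were sequenced from the inoculated region (day 5), the margin of the inoculated leaf (day 10) and systemic leaves (day 12).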

Values are reads per thousand in the sample; higher means more abundant, 0 means not found.
Each value is the mean of three plants.
"Pool" is the share in the plasmid pool used as inoculum, on the same scale.
The inoculated region was read from the minus strand, the other sites from the plus strand.
Sequences that differ at fixed positions probably stem from PCR or sequencing errors, and defective variants can be carried along by functional ones.
For reference, wild type rose from 33.9 per thousand in the pool to 202, 200, 159 (inoculated region), 724, 746, 710 (leaf margin) and 856, 883, 880 (systemic leaves).
Samples held 43,870 to 66,106 reads, so the smallest values rest on one or two reads.

sequence,pool,inoculated region,leaf margin,systemic leaves
GGAAACCGGGCAUUC,0.192,0.0739,0.00539,0
GGAAACCGGACACUC,0.176,0.0814,0,0.00537
GGAAACCGAAGCAAC,0.224,0.0803,0.00539,0.00537
GGAAACCGGGCCACC,0.224,0.0876,0.00668,0
GGAAACCGUAGCUGC,0.224,0.173,0.0134,0.00537
GGAAACCGGGAGUUC,0.224,0.395,0.0833,0.0822
GGAAACCGCAAGGCC,0.176,0.136,0.00539,0
GGAAACCGCUCAACC,0.256,0.0607,0,0
GGAAACCGCCAACUC,0.160,0.375,0.141,0.0901
GGAAACCGAUAGAUC,0.176,0.337,0.0880,0.0790
GGAAACCGCUAGACC,0.160,0.111,0.00539,0
GGAAACCGUGCUAAC,0.128,0.0730,0.0215,0
GGAAACCGAAAAAUC,0.208,0.170,0.00668,0
GGAAACCGCUGGGAC,0.192,0.112,0.0141,0
GGAAACCGCUCUACC,0.288,0.0891,0.0121,0
GGAAACCGGCUACGC,0.176,0.0643,0.0195,0
GGAAACCGAGCGUGC,0.288,0.279,0.106,0.0609
GGAAACCGUCCCCUC,0.160,0.146,0.0108,0
GGAAACCGUUGCAUC,0.144,0.0762,0.0134,0
GGAAACCGAUGUGCC,0.240,0.0785,0,0
GGAAACCGUCAGAUC,0.304,0.325,0.0972,0.0180
GGAAACCGCCUAGCC,0.224,0.0896,0.00742,0.00537
GGAAACCGCCGGCAC,0.224,0.114,0.00668,0
GGAAACCGGACACGC,0.192,0.0920,0.00668,0
GGAAACCGUGUUGCC,0.176,0.0678,0.0108,0
GGAAACCGAAGGGGC,0.288,0.0922,0.00668,0
GGAAACCGGAAUAUC,0.160,0.0903,0.00742,0.00537
GGAAACCGGCUCAUC,0.384,0.105,0.00539,0.0107
GGAAACCGUAUUUGC,0.192,0.0938,0.00668,0
GGAAACCGCUCCCCC,0.160,0.0946,0.0121,0
GGAAACCGUACGGUC,0.256,0.285,0.00742,0
GGAAACCGAGUGGAC,0.256,0.0931,0.00742,0
GGAAACCGGAUGACC,0.256,0.0783,0.0134,0
GGAAACCGAAAAAAC,0.416,0.317,0.177,0.0161
GGAAACCGCUCUAGC,0.208,0.150,0.0187,0.00537
GGAAACCGUCCCUCC,0.208,0.0897,0.00668,0
GGAAACCGCUCCUAC,1.46,0.748,0.910,0.499
GGAAACCGUAAGAUC,0.224,0.360,0.118,0.0616
GGAAACCGAUAACAC,0.304,0.389,0.116,0.0531
GGAAACCGCUGCCUC,0.256,0.113,0,0.00537
GGAAACCGAGACGUC,0.224,0.0824,0.0128,0
GGAAACCGACUCCUC,0.176,0.0679,0.00539,0
GGAAACCGGGGCGCC,0.128,0.0751,0.0395,0
GGAAACCGUAGGGAC,0.320,0.113,0.00668,0.00760
GGAAACCGUUGUUAC,0.224,0.309,0.0780,0.0863
GGAAACCGUUUCUCC,0.288,0.0733,0.0195,0
GGAAACCGAGUCGAC,0.160,0.0623,0.646,0
GGAAACCGGCACUCC,0.224,0.0704,0,0
GGAAACCGGGACUUC,0.224,0.291,0.115,0.0161
GGAAACCGUUUCGCC,0.304,0.0622,0.0141,0
GGAAACCGCAAAUCC,0.176,0.0805,0,0
GGAAACCGGCGUGAC,0.304,0.134,0.00668,0
GGAAACCGACAGUUC,0.160,0.320,0.0759,0.0746
GGAAACCGUCACAAC,0.224,0.331,0.106,0.0816
GGAAACCGGGUGAGC,0.272,0.0796,0.00668,0
GGAAACCGAUCGAAA,0.0160,0.703,0.0833,0.0161
GGAAACCGGUAUCUC,0.256,0.0697,0.0241,0
GGAAACCGGGCGCGC,0.256,0.137,0.0134,0
GGAAACCGUGUUGUC,0.272,0.0748,0,0
GGAAACCGCCGGUCC,0.208,0.267,0.124,0.0745
GGAAACCGCGUUACC,0.320,0.0958,0.0241,0
GGAAACCGUUGCUUC,0.272,0.341,0.107,0.0107
GGAAACCGUCUCAGC,0.288,0.109,0,0
GGAAACCGUCUACGC,0.352,0.111,0,0
GGAAACCGCAGUAGC,0.224,0.0977,0.0141,0
GGAAACCGCGAGCGC,0.208,0.101,0.00742,0.00760
GGAAACCGACUCGAC,0.224,0.124,0.00668,0

A selection of 5 entries from above:

{"sequence": "GGAAACCGUCUCAGC", "pool": "0.288", "inoculated region": 0.109, "leaf margin": 0, "systemic leaves": 0}
{"sequence": "GGAAACCGUCUACGC", "pool": "0.352", "inoculated region": 0.111, "leaf margin": 0, "systemic leaves": 0}
{"sequence": "GGAAACCGAGACGUC", "pool": "0.224", "inoculated region": 0.0824, "leaf margin": 0.0128, "systemic leaves": 0}
{"sequence": "GGAAACCGGGCCACC", "pool": "0.224", "inoculated region": 0.0876, "leaf margin": 0.00668, "systemic leaves": 0}
{"sequence": "GGAAACCGAGCGUGC", "pool": "0.288", "inoculated region": 0.279, "leaf margin": 0.106, "systemic leaves": 0.0609}